Literature values as cited in paper PMC5614878.

Target: HIV-1 reverse transcriptase p51 p51 (Human immunodeficiency virus 1) (UniProt O93215)
Conditions: cited from earlier work

Question: With “HIV-1 reverse transcriptase p51 p51 (from UniProt O93215)” as the substance, how does the Kd read?
Answer: The Kd was 230 µM.
